Assay results: patent publication US20230338478A1 (University of Pennsylvania, published 2023)

Columns and labels:
[1] = target: T1, SARS-CoV-2 RBD 417N/484K/501Y (South Africa, B.1.351), purified recombinant (SARS-CoV-2); assay: SPR, decoy-Fc captured on protein A/G chip, RBD injected, 1:1 fit
T1 construct: range […]

[2] = target: T2, SARS-CoV-2 RBD 501Y (UK, B.1.1.7), purified recombinant (SARS-CoV-2); assay: as above
T2 construct: range […]

B1: ACE2-wt-Fc4 (Fc fusion)
chain: not shown
- koff [1]: 0.00537 s⁻¹
- kon [1]: 439000 M⁻¹ s⁻¹
- Kd [2]: 3.3 nM
- koff [2]: 0.00207 s⁻¹
- kon [2]: 626000 M⁻¹ s⁻¹
